These results are taken from ChEMBL document CHEMBL1138147, “Respiratory syncytial virus fusion inhibitors. Part 3: Water-soluble benzimidazol-2-one derivatives with antiviral activity in vivo” (Bioorg Med Chem Lett, 2006).

Data set [1] in a line: Therapeutic index (CC50/EC50) for RSV infected Hep2 cells. The conditions noted are these: human, hep-2. It is filed as cell-based.
In data set [2] the test system is HEp-2. As to the kind of experiment: Cytotoxicity against human Hep2 cells infected with RSV Long strain. Type of data set: functional.
Data set [3] has as its system Mus musculus. As to the kind of experiment: Efficacy in BALB/c mouse measured as reduction in log TCID50 of RSV per gram of lung at 50 mg/kg, po.
In data set [4] the test system is Mus musculus. As to the kind of experiment: Efficacy in BALB/c mouse measured as reduction in log TCID50 of RSV per gram of lung at 15 mg/kg, po.
Data set [5] concerns Cotton rat. As to the kind of experiment: Efficacy in cotton rat measured as reduction in log TCID50 of RSV per gram of lung at 0.5 mg/mL.
The test system of data set [6] is Mus musculus. As to the kind of experiment: Efficacy in BALB/c mouse measured as reduction in log TCID50 of RSV per gram of lung at 50 mg/kg, sc. The following applies: route subcutaneous.

This is a selection: effects in other tests are not listed, and their absence says nothing. Where only a bound is given, the exact number is not on record here.

For `COC(=O)c1ccccc1Cn1c(=O)n(Cc2nc3ccccc3n2CCN(C)C)c2ccccc21`, in data set [1], the Ratio CC50/EC50 turned out to be 605. In data set [2], this molecule came in with a CC50 of 11.5 µM.

For `CN(C)CCn1c(Cn2c(=O)n(Cc3ccc(C(=O)N(C)C)cc3)c3ccccc32)nc2ccccc21`, the Efficacy turned out to be 3.09 in data set [3] and 3.88 in data set [4]. Also, in data set [1], the Ratio CC50/EC50 came out at 369. Moreover, the CC50 in data set [2] was found to be 68.7 µM.

Turning to `CC(C)n1c(=O)n(Cc2nc3ccccc3n2CCN(C)C)c2ccccc21`, the Ratio CC50/EC50 in data set [1] was determined as 678. Half-maximal cytotoxicity in data set [2] (CC50) was put at 9.5 µM.

As to `C=C(C)n1c(=O)n(Cc2nc3ccccc3n2CCN(C)C)c2ccccc21`, the Ratio CC50/EC50 in data set [1] amounted to 900. In data set [2], the CC50 stood at 9.9 µM.

For `CN(C)CCn1c(Cn2c(=O)n(Cc3ccccc3C(=O)O)c3ccccc32)nc2ccccc21`, the Ratio CC50/EC50 in data set [1] was determined as 25. The midpoint of cytotoxicity in data set [2], the CC50, lay at 3.2 µM.

Take `CN(C)CCn1c(Cn2c(=O)n(Cc3ccc(C(=O)O)cc3)c3ccccc32)nc2ccccc21`: the Efficacy was determined as 2.72 in data set [3] and 4.3 in data set [5]. In addition, in data set [1], the Ratio CC50/EC50 is above 765. The same molecule showed a CC50 in data set [2] above 150 µM.

Consider `COC(=O)c1ccc(Cn2c(=O)n(Cc3nc4ccccc4n3CCN(C)C)c3ccccc32)cc1`, for which the Efficacy in data set [3] is 3.47; in data set [6] it was 2.59. Further, the Ratio CC50/EC50 in data set [1] came out at 1220. This molecule gave a CC50 in data set [2] of 28 µM.

Take `CN(C)CCn1c(Cn2c(O)nc3ccccc32)nc2ccccc21`: the Ratio CC50/EC50 in data set [1] stood at 4710. In data set [2], the cytotoxic concentration (CC50) worked out at 292 µM.

For orientation: CC50 means the concentration at which the toxic effect on the cells reaches its halfway point. Read a high CC50 as better tolerance by the cells.
